Data source: PubChem BioAssay AID504761 (Drosophila RNAi Screening Center, 2011)
In all, the deposit lists about 22,000 reagents; shown is an unselected part of those with a known target gene and a result. Over the whole deposit, 116 (0.52%) were called active. 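Calls depend on retest data that are not deposited; infection was ranked per plate without normalising between plates; the unit of the infection score is not given.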 Raw values are not corrected between plates. Unmarked entries are inactive. Not stated in the record: the amount of reagent, the time to read-out.

Assay: 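Genome-wide fly cell screen for genes dengue virus requires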 (primary screen)
Cell system: D.Mel-2 cells from Drosophila
Reagent: long dsRNA against Drosophila genes
Conditions: infection with dengue virus type 2; dose and infection time not stated
Read-out: 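Cells stained for dengue envelope protein and imaged; percent of infected cells per well on duplicate plates, ranked by infection, with stained nuclei counted for cell number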
Direction: infection score: higher = more virus-infected cells; cell count: higher = more cells in the well
Call rule: 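Low infection ranks in the two replicates (chance level up to 0.065) followed by a retest with a 1.5-fold or larger significant decrease, p below 0.05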
Calls: active = confirmed: knock-down lowers infection; inactive = not picked or not confirmed

For CG32846 [DRSC08012], what does the deposit list?
infection score, replicate 1: 0.55; infection score, replicate 2: 0.19; cell count, replicate 1: 6532; cell count, replicate 2: 6462

What did the screen give for CG32846 [DRSC27074]?
infection score, replicate 1: 5.18; infection score, replicate 2: 2.56; cell count, replicate 1: 6280; cell count, replicate 2: 6940

For Abi [DRSC14099], how do the results read?
infection score, replicate 1: 24.4; infection score, replicate 2: 18.6; cell count, replicate 1: 6337; cell count, replicate 2: 6269

For Abi [DRSC27275], what was measured?
infection score, replicate 1: 27.3; infection score, replicate 2: 7.2; cell count, replicate 1: 6033; cell count, replicate 2: 5705

For CG9427 [DRSC16490], what does the deposit list?
infection score, replicate 1: 4.79; infection score, replicate 2: 7.95; cell count, replicate 1: 7009; cell count, replicate 2: 6632

How did the screen score CG9427 [DRSC28856]?
infection score, replicate 2: 3.25; cell count, replicate 1: 372; cell count, replicate 2: 1445

With Or98P [DRSC22948], what does the deposit list?
infection score, replicate 1: 3.5; infection score, replicate 2: 0.43; cell count, replicate 1: 6487; cell count, replicate 2: 6531

With Or98P [DRSC25899], how do the results read?
infection score, replicate 1: 1.36; infection score, replicate 2: 1.49; cell count, replicate 1: 6315; cell count, replicate 2: 6635

How did the screen score CG10376 [DRSC02049]?
infection score, replicate 1: 22; infection score, replicate 2: 25.6; cell count, replicate 1: 6031; cell count, replicate 2: 6212

What did the screen give for CG10376 [DRSC26744]?
infection score, replicate 1: 16.6; infection score, replicate 2: 12.9; cell count, replicate 1: 6009; cell count, replicate 2: 6203

With Yp3 [DRSC20302], what was measured?
infection score, replicate 1: 1.43; infection score, replicate 2: 1.94; cell count, replicate 1: 6593; cell count, replicate 2: 6499

With Yp3 [DRSC25550], what does the deposit list?
infection score, replicate 1: 1.29; infection score, replicate 2: 3.39; cell count, replicate 1: 6285; cell count, replicate 2: 6520

With CG34229 [DRSC06316], what was measured?
infection score, replicate 1: 3.72; infection score, replicate 2: 5.55; cell count, replicate 1: 6429; cell count, replicate 2: 6286

With CG14125 [DRSC10129], what was measured?
infection score, replicate 1: 3.84; infection score, replicate 2: 4.65; cell count, replicate 1: 5800; cell count, replicate 2: 6388

What is on record for CG3587 [DRSC18541]?
infection score, replicate 1: 5.86; infection score, replicate 2: 18.1; cell count, replicate 1: 5546; cell count, replicate 2: 5320

How did the screen score CG3587 [DRSC21966]?
infection score, replicate 1: 12.6; infection score, replicate 2: 23.1; cell count, replicate 1: 7246; cell count, replicate 2: 3284

What did the screen give for CG1943 [DRSC12576]?
infection score, replicate 1: 3.33; infection score, replicate 2: 0.4; cell count, replicate 1: 5734; cell count, replicate 2: 6004

Which result is listed for CG13392 [DRSC02262]?
infection score, replicate 1: 2.61; infection score, replicate 2: 2.96; cell count, replicate 1: 5969; cell count, replicate 2: 6420

What is on record for RhoGAP71E [DRSC10232]?
infection score, replicate 1: 10.2; infection score, replicate 2: 11.4; cell count, replicate 1: 5749; cell count, replicate 2: 4378

With RhoGAP71E [DRSC10838], what was measured?
infection score, replicate 1: 3.64; infection score, replicate 2: 7.73; cell count, replicate 1: 5799; cell count, replicate 2: 5873

What did the screen give for RhoGAP71E [DRSC29082]?
infection score, replicate 1: 21.8; infection score, replicate 2: 16.7; cell count, replicate 1: 5943; cell count, replicate 2: 5866

Looked up above.
CG9427 [DRSC28856], cell count, replicate 1: 372
Under “infection score, replicate 1”, Or98P [DRSC25899] is entered as 1.36
For “infection score, replicate 2”, CG10376 [DRSC02049] shows 25.6
